To fix the notation:
B1: BD57-013 (protein)
chain 1: EVQLVESGGGLVRPGGSLRLSCAASGIIVSSNYMSWVRQAPGKGLEWVSVIYSGGSTFYADSVKGRFTISRHNSKNTLYLQMNSLRAEDTAVYYCARDLYSSGGTDIWGQGTMVTVSS
chain 2: EIVLTQSPGTLSLSPGERATLSCRASQSVSSSYLAWYQQKPGQAPRLLIYGTSRRATGIADRFSGSGSGADFTLTISRLEPEDFAVYYCQEYGSTTVTFGGGTKVEIK
B2: BD57-031 (protein)
chain 1: QMQLVQSGPEVKKPGTSVKVSCKASGFTFITSAVQWVRQARGHRLEWIGWIAVGRGNTDYAQRFQERVTITRDVSTTTAYMELSSLRPDDTAVYYCAAPYCSGGTCNDGFDIWGQGTMVTVSS
chain 2: EIVLTQSPGTLSLSPGERATLSCRASQSVSSSYLAWYQQKPGQAPRVLIYGASRRATGIPDRFSGSGSGTDFTLTISRLEPEDFAVYYCQQYGTSPWTFGQGTKVEIK
B3: BD57-005 (protein)
chain 1: QVQLVQSGAEVKKPGSSVKVSCKASGGTFSTYAINWVRQAPGQGLEWMGRIISMFDKANYAQNFQGRVTITADKSTTTAYMELNSLRSEDTAVYYCATTKFFYETGVGYYFDYWGQGTLVTVSS
chain 2: EIVLTQSPGTLSLSPGERATLSCRASQNLDSNYLAWYQQKPGQAPRLLIYGASNRATGIPDRFSGSGSGTDFILTISRLEPEDFAVYYCQQYHTSRTFGQGTKVEIK
B4: BD57-021 (protein)
chain 1: EVQLVESGGGLVQPGGSLRLSCAVSGIIVSRNYMSWVRQAPGKGLEWVSIMYSGGSTFYADSVKGRFTISRDDSKNTLYFQMNSLRDEDTAIYYCARDLLEAGGTDQWGQGTLVTVSS
chain 2: DIVLTQSPGTLSLSPGERATLSCRASQSVSSSSLAWYQQKPGQAPRLLIYGASTRATGIPDRFSGSGSGTDFTLTISRLEPEDFAVYYCQQYGSSPGYTFGQGTKLEIK
B5: XGv-380 (protein)
chain 1: QVQLVQSGAEVKKPGASVKVSCKASGYTFTSYGISWVRQAPGQGLEWMGWINTYNGDTNYAQNLQARVTMTTDTSTSTAYMELRSLRSDDTAVYFCARVLGYYQDSSGYCFDYWGQGTLVTVSS
chain 2: EIVMTQSPATLSVSPGERATLSCRASQSVSSNFLAWYQQKPGQAPKLLIYGASTRATGIPARFSGSGSGTEFTLTISSLQSEDFGVYFCQQYDNWPPEWTFGQGTTVEIK
B6: BD57-001 (protein)
chain 1: EVQLVESGGGLVQPGGSLRLSCAASGVTVSSNYMTWVRQAPGKGLEWVSVIYSGGSTFYADSVKGRFTISRDNSKNTLYLQMNSLRAEDTAVYYCARELPHWEGYFDYWGQGTLVTVSS
chain 2: QSVLTQPPSVSGAPGQRVTISCTGSSSTIGAGYDVHWYQQLPETAPKLLIYGNSNRPSGVPDRFSGSKSGTSASLAITGLQAEDEADYYCQSYDSSLSGWVFGGGTKLTVL
B7: BD57-004 (protein)
chain 1: QVQLVQSGGEVKKPGASVKVSCKASGYTFTSYGISWVRQAPGQGLEWMGWISAYNDNTNYEQKFQGRVTMTTDTSTTTAYMELRSLRSDDTAVYYCARYGLYYFDRSGNYDMSPDDSFDIWGQGTMVTVSS
chain 2: QSVLTQPPSVSGAPGQRVTISCTGSSSNIGAGYDIHWYQQLPGTAPKLLIYGNSNRPSGVPDRFSGSKSGTSASLAITGLQAEDEADYYCQSYDSSLSGVVFGGGTKLTVL
B8: XGv-418 (protein)
chain 1: EVQLVQSGAEVKKPGESLKISCKGSGYSFGTYWIGWVRQMPGKGLEWMGIIYPGDSDTRYSPSFQGHVTISADKSISTAYLEWSSLKASDSGMYYCASRPPWETYRYWGQGTPVTVSS
chain 2: QSALTQPASVSASPGQSITISCTGTSRDIGSYNLLSWYQQLPGKAPKLIIYEGSKRPSGVSNRFSGSNSGNTASLTISGLQADDEADYYCCSYAGSDTFPGVFGGGTKL
B9: BD57-014 (protein)
chain 1: EVQLVESGGGLVKPGGSLRLSCAASGFTFSDYTMNWVRQAPGKGLEWVSSISSGSDYIYYADSVKGRFTISRDNAKNSVYMQMNSLRAEDMAVYYCASGGDWFDPWGQGTLVTVSS
chain 2: SYELTQPPSVSVSPGQTASITCSGHKLGDKYASWYQQKPGQSPVLVVYQDSNRPSGIPERFSGSNSGNTATLTISGTQAMDEADYYCQAWDSNTVLFGGGTKLTVL
B10: BD57-033 (protein)
chain 1: EVQLVESGGGLVQPGGSLRLSCAASGIIVSSNYMNWVRQAPGKGLEWVSVLYSGGSTFYADSVKGRFIITRDNSKNTLYLQMNSLRVEDMAVYYCARSYGDYYFDYWGQGTLVTVSS
chain 2: EIVLTQSPGTLSLSPGERATLSCRASQSVSSDYLAWYQQKPGQAPRLLIFGASSRATGIPDRFSGSGSGTDFTLTIRRLEPEDFAVYYCQQDGYTFGQGTKLEIK
B11: BD57-016 (protein)
chain 1: QVQLVESGGGLVKPGGSLRLSCAASGFTFGDYNLRWIRQAPGKGLEWVSYISSSGSSIYYADSVKGRFTISRENAKNSLYLQMNSLRAEDTAIYYCARDLWTISSGWFALDGQAFDSWGQGTLVTVSS
chain 2: QSVLTQPPSVSGAPGQRVTISCTGSSSNIGADYDVHWYQQLPGTAPKLLIYTNSNRPSGVPDRFSGSKSGTSASLAITGLQAEDEANYYCQSYDSSLSAPYWVFGGGTKLTVL
B12: XGv-409 (protein)
chain 1: QMQLVQSGPEVKKPGTSVKVSCKASGFTFSDSAIQWVRQARGQRLEWIGWMVVGSGSTNYAQKFQERATMTRDMSTRTAYMELSSLRSEDTAVYYCAAPFCSGGTCSDGFDIWGQGTMVTVSS
chain 2: EIVLTQSPGTLSLSPGERATLSCRASQSISINYFGWYQQRPGQPPRLLIYGASRRATGIPDRFSASGSGTDFALTISRLEPEDFAVYYCQQYGNSPWTFGQGTKVEIK

Human monoclonal antibodies against the spike receptor-binding domain (heavy:light variable regions). IC50 against pseudoviruses bearing the spike of naturally observed variants; lower = stronger; >10 µg/ml means not reached at the top dose. No active / inactive call. The stated detection limit is 0.0005 µg/ml; values near or below 0.001 µg/ml lie at the floor of the assay.

The target of the first test is SARS-CoV-2 Omicron BA.1 spike pseudovirus. Description: pseudovirus neutralization IC50; higher = weaker neutralization. As for the experimental part:
(§1)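 Single-round VSV luciferase pseudovirus mixed with antibody dilutions for 1 h and put on Huh-7 cells for about a day; IC50 from the dose curve.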
As to B1, the “pseudovirus neutralization IC50” value was 0.0413 µg/mL.
As for B2, the “pseudovirus neutralization IC50” value was found to be 0.0593 µg/mL.
For B3, the “pseudovirus neutralization IC50” value worked out at 0.0345 µg/mL.
B4: the “pseudovirus neutralization IC50” value came out at 0.0127 µg/mL.
As to B5, the “pseudovirus neutralization IC50” value is 0.819 µg/mL.
In the case of B6, the “pseudovirus neutralization IC50” value came out at 0.403 µg/mL.
As to B7, the “pseudovirus neutralization IC50” value amounted to 0.991 µg/mL.
On the same count and under the same terms, in the case of B8 it was 2 µg/mL.
Consider B9, for which the “pseudovirus neutralization IC50” value was 0.0413 µg/mL.
With B10, the “pseudovirus neutralization IC50” value amounted to 0.0121 µg/mL.
On the same count and under the same terms, in the case of B11 it was 0.809 µg/mL; in that of B12, 1.5 µg/mL.

For the next test, the target named is SARS-CoV-2 Omicron BA.2 spike pseudovirus. The description is as above. As for the experimental part: as §1
On to B1, for which the “pseudovirus neutralization IC50” value was determined as 0.0546 µg/mL.
For B2, the “pseudovirus neutralization IC50” value was 0.037 µg/mL.
Still for that read-out and setting: then B3, with 0.0335 µg/mL.
B4: the “pseudovirus neutralization IC50” value turned out to be 0.0139 µg/mL.
As for B5, the “pseudovirus neutralization IC50” value was determined as 0.781 µg/mL.
For the molecule B6, the “pseudovirus neutralization IC50” value worked out at 0.437 µg/mL.
On to B7, for which the “pseudovirus neutralization IC50” value is > 10 µg/mL.
With B8, the “pseudovirus neutralization IC50” value was found to be 0.713 µg/mL.
Take B9: the “pseudovirus neutralization IC50” value was > 10 µg/mL.
With B10, the “pseudovirus neutralization IC50” value was 0.00899 µg/mL.
On to B11, for which the “pseudovirus neutralization IC50” value was > 10 µg/mL.
In the case of B12, the “pseudovirus neutralization IC50” value was 1.25 µg/mL.

The target in a further test is SARS-CoV-2 Omicron BA.2.75 spike pseudovirus. Described as above. As for the experimental part:
as §1
Turning to B1, the “pseudovirus neutralization IC50” value is 0.0384 µg/mL.
In the case of B2, the “pseudovirus neutralization IC50” value is 0.000972 µg/mL.
With B3, the “pseudovirus neutralization IC50” value turned out to be 0.00485 µg/mL.
The same measure, in the same setting: in the case of B4 it was 0.0242 µg/mL.
As for B5, the “pseudovirus neutralization IC50” value is 1.01 µg/mL.
Still for that read-out and setting: in the case of B6 it was > 10 µg/mL.
Still for that read-out and setting: in the case of B7 it was > 10 µg/mL; in that of B8, 0.711 µg/mL; in that of B9, > 10 µg/mL.
In the case of B10, the “pseudovirus neutralization IC50” value is 0.00819 µg/mL.
B11: the “pseudovirus neutralization IC50” value was > 10 µg/mL.
Still for that read-out and setting: then B12, with 0.0946 µg/mL.

The next test concerns the target SARS-CoV-2 Omicron BA.5 spike pseudovirus. The test is described as above. As for the experimental part:
as §1
As to B1, the “pseudovirus neutralization IC50” value stood at 0.0507 µg/mL.
In the case of B2, the “pseudovirus neutralization IC50” value came out at 8.18 µg/mL.
For B3, the “pseudovirus neutralization IC50” value was > 10 µg/mL.
Regarding B4, the “pseudovirus neutralization IC50” value came out at 0.0108 µg/mL.
On to B5, for which the “pseudovirus neutralization IC50” value came to 0.972 µg/mL.
Consider B6, for which the “pseudovirus neutralization IC50” value was 0.776 µg/mL.
Consider B7, for which the “pseudovirus neutralization IC50” value was > 10 µg/mL.
Take B8: the “pseudovirus neutralization IC50” value is 0.651 µg/mL.
With B9, the “pseudovirus neutralization IC50” value is > 10 µg/mL.
For B10, the “pseudovirus neutralization IC50” value was determined as 0.00771 µg/mL.
With B11, the “pseudovirus neutralization IC50” value was > 10 µg/mL.
For the molecule B12, the “pseudovirus neutralization IC50” value is > 10 µg/mL.

The next test has as its target SARS-CoV-2 Omicron BQ.1.1 spike pseudovirus. Described as above. As for the experimental part: as §1
Take B1: the “pseudovirus neutralization IC50” value is 2.63 µg/mL.
For B2, the “pseudovirus neutralization IC50” value is > 10 µg/mL.
In the case of B3, the “pseudovirus neutralization IC50” value is > 10 µg/mL.
B4: the “pseudovirus neutralization IC50” value came to 0.191 µg/mL.
B5: the “pseudovirus neutralization IC50” value is > 10 µg/mL.
In the case of B6, the “pseudovirus neutralization IC50” value is > 10 µg/mL.
Turning to B7, the “pseudovirus neutralization IC50” value is > 10 µg/mL.
Turning to B8, the “pseudovirus neutralization IC50” value turned out to be 1.05 µg/mL.
Consider B9, for which the “pseudovirus neutralization IC50” value was > 10 µg/mL.
As to B10, the “pseudovirus neutralization IC50” value turned out to be 0.0161 µg/mL.
B11: the “pseudovirus neutralization IC50” value was > 10 µg/mL.
On to B12, for which the “pseudovirus neutralization IC50” value was > 10 µg/mL.

In another test the target is SARS-CoV-2 Omicron XBB spike pseudovirus. The description is as above. As for the experimental part:
as §1
In the case of B1, the “pseudovirus neutralization IC50” value came to 3.07 µg/mL.
Still for that read-out and setting: then B2, with > 10 µg/mL; and B3, with > 10 µg/mL; and B4, with 0.171 µg/mL.
Turning to B5, the “pseudovirus neutralization IC50” value was > 10 µg/mL.
As for B6, the “pseudovirus neutralization IC50” value was > 10 µg/mL.
With B7, the “pseudovirus neutralization IC50” value is > 10 µg/mL.
As for B8, the “pseudovirus neutralization IC50” value stood at 2.12 µg/mL.
For B9, the “pseudovirus neutralization IC50” value is > 10 µg/mL.
As to B10, the “pseudovirus neutralization IC50” value came out at 0.0152 µg/mL.
Take B11: the “pseudovirus neutralization IC50” value is > 10 µg/mL.
Consider B12, for which the “pseudovirus neutralization IC50” value was > 10 µg/mL.

A further test addresses SARS-CoV-2 early D614G spike pseudovirus. The description is as above. As for the experimental part:
as §1
For the molecule B1, the “pseudovirus neutralization IC50” value is 0.00942 µg/mL.
As for B2, the “pseudovirus neutralization IC50” value is 0.001 µg/mL.
Consider B3, for which the “pseudovirus neutralization IC50” value is 0.00652 µg/mL.
On the same count and under the same terms, then B4, with 0.0169 µg/mL.
Turning to B5, the “pseudovirus neutralization IC50” value was 0.628 µg/mL.
For B6, the “pseudovirus neutralization IC50” value worked out at 0.0195 µg/mL.
The same measure, in the same setting: in the case of B7 it was 0.413 µg/mL; in that of B8, 1.13 µg/mL.
The same measure, in the same setting: then B9, with 0.0399 µg/mL; and B10, with 0.0236 µg/mL; and B11, with 0.104 µg/mL.
For the molecule B12, the “pseudovirus neutralization IC50” value is 0.0211 µg/mL.

The values above are taken from the supplement of paper PMC9931576.
